Reference: PMC4999073 (PLoS ONE, 2016)

Test: Bottom-up proteomic identification (nanoLC-MS/MS) of proteins in intestinal segments
Set-up: species or system chicken

gallinacin-7 [Gallus gallus] (RPIDTCRLRNGICFPGICRRPYYWIGTCNNGIGSCCARGWRS; UniProt Q6QLR2 26-67, looked up)
Number of Unique Peptides, caecal tonsil (bottom-up nanoLC-MS/MS of protein extract from chicken caecal tonsil, endogenous protein identified): 3 | Number of Unique Peptides, caecum (bottom-up nanoLC-MS/MS of protein extract from chicken caecum, endogenous protein identified): 3 | Number of Unique Peptides, ileon (bottom-up nanoLC-MS/MS of protein extract from chicken ileon, endogenous protein identified): 2 | Number of Unique Peptides, jejunum (bottom-up nanoLC-MS/MS of protein extract from chicken jejunum, endogenous protein identified): 2

B1: gallinacin 1 precursor (protein, UniProt P46156 1-65, looked up)
chain: MRIVYLLLPFILLLAQGAAGSSQALGRKSDCFRKSGFCAFLKCPSLTLISGKCSRFYLCCKRIWG
modifications: full-length
Number of Unique Peptides, caecal tonsil (chicken caecal tonsil protein extract, bottom-up nanoLC-MS/MS identification): 1 | Number of Unique Peptides, caecum (chicken caecum protein extract, bottom-up nanoLC-MS/MS identification): 0 | Number of Unique Peptides, ileon (chicken ileon protein extract, bottom-up nanoLC-MS/MS identification): 0 | Number of Unique Peptides, jejunum (chicken jejunum protein extract, bottom-up nanoLC-MS/MS identification): 1

B2: RecName: Full=Spliceosome RNA helicase DDX39B; AltName: Full=56 kDa U2AF65-associated protein; AltName: Full=DEAD box protein UAP56 (protein, UniProt Q5ZHZ0 1-428, looked up)
Spliceosome RNA helicase …: MAENDVDNELLDYEEDEVENAAGGDGSEAPPKKDVKGSYVSIHSSGFRDFLLKPELLRAIVDCGFEHPSEVQHECIPQAILGMDVLCQAKSGMGKTAVFVLATLQQLEPVTGQVSVLVMCHTRELAFQISKEYERFSKYMPSVKVAVFFGGLAVKKDEEVLKKNCPHIVVGTPGRILALARNKSLNLKHIKHFILDECDKMLEQLDMRRDVQEIFRMTPHEKQVMMFSATLSKEIRPVCRKFMQDPMEIFVDDETKLTLHGLQQYYVKLKDNEKNRKLFDLLDVLEFNQVVIFVKSVQRCIALAQLLVEQNFPAIAIHRGMPQEERLSRYQQFKDFQRRILVATNLFGRGMDIERVNIAFNYDMPEDSDTYLHRVARAGRFGTKGLAITFVSDENDAKILNDVQDRFEVNISELPDEIDISSYIEQTR
Number of Unique Peptides, caecal tonsil (chicken caecal tonsil protein extract, bottom-up nanoLC-MS/MS): 0 | Number of Unique Peptides, caecum (chicken caecum protein extract, bottom-up nanoLC-MS/MS): 1 | Number of Unique Peptides, ileon (chicken ileon protein extract, bottom-up nanoLC-MS/MS): 0 | Number of Unique Peptides, jejunum (chicken jejunum protein extract, bottom-up nanoLC-MS/MS): 0
